Results of unrelated studies side by side (data: NIAID ChemDB).

Common to all: whole-cell or culture tests; agent: Hepatitis C virus; cell line: Huh7; method: replicon; endpoint: EC50

Conditions beyond the fields shown may differ between rows.

| SMILES | value |
|---|---|
| CCc1ccc(-c2oc3ccc(F)cc3c2C(=O)NC)cc1 | <10 µM |
| O=C1Cn2c(c(C3CCCCC3)c3ccc(C(=O)NC4(C(=O)Nc5nccs5)CCCC4)cc32)-c2ccccc2N1 | 0.01–1 µM |
| CCOC(=O)/N=C1\SC(c2ccc(NC(=O)[C@H]3CCCN3C(=O)OCc3ccccc3)cc2)C(=O)N1Cc1cccnc1 | <0.1 µM |
| CCOC(=O)c1csc(CN(c2cc3oc(-c4ccc(F)cc4)c(C(=O)NC)c3cc2OC(C)C)S(C)(=O)=O)n1 | <10 µM |
| O=C(Nc1ccc(C2SC(=Nc3ccc4c(c3)OCCO4)N(Cc3ccco3)C2=O)cc1)[C@H]1CCCN1C(=O)OCc1ccccc1 | <0.1 µM |
| CNC(=O)c1c(-c2ccc(F)cc2)oc2cc(O)c(OC)cc12 | <30 µM |
| COc1cccc(CC(=O)N/N=C/c2cccc(Cl)c2OS(=O)(=O)c2ccc(C)cc2)c1 | <5 µM |
| O=C(NC1(C(=O)OCc2ccccc2)CCCC1)c1ccc2c(C3CCCCC3)c3n(c2c1)CCCc1cc(O)ccc1-3 | 1–10 µM |
| CNC(=O)c1c(-c2ccc(F)cc2)oc2cc(N(CC(C)=O)S(C)(=O)=O)c(O)cc12 | <10 µM |
| COC(=O)c1ccc2c(C3CCCCC3)c3n(c2c1)C(O)c1cc(Cl)ccc1-3 | 0.01–1 µM |
| COc1cccc(CC(=O)N/N=C/c2ccc(Cl)cc2OS(=O)(=O)c2ccc(C(F)(F)F)cc2)c1 | 5–50 µM |
| CN(C)CCN1C(=O)Cn2c(c(C3CCCCC3)c3ccc(C(=O)O)cc32)-c2ccccc21 | 0.01–1 µM |
| CC(C)c1ccc(S(=O)(=O)Oc2ccccc2/C=N/NC(=O)Cc2ccccc2)cc1 | <5 µM |
| C[C@@H](NC(=O)Nc1ccccc1)C(=O)Nc1ccc(C2SC(=Nc3cccc(F)c3)N(Cc3ccco3)C2=O)cc1 | 1–5 µM |
| CCc1cc2c(C(=O)NC)c(-c3ccc(F)cc3)oc2cc1C(C)=O | <1 µM |
| O=C(O)c1ccc2c(C3CCCCC3)c3n(c2c1)CC=Cc1cc(OCc2ccccc2)ccc1-3 | 0.01–1 µM |
| CNC(=O)c1c(-c2ccc(F)cc2)oc2cc(N(C)S(C)(=O)=O)c(OCc3nccs3)cc12 | <1 µM |
| CCS(=O)(=O)NC(=O)c1ccc2c(C3CCCCC3)c3n(c2c1)CC(C(=O)N1CCOCC1)Cc1ccccc1-3 | 0.01–1 µM |
| CNC(=O)c1c(-c2ccc(F)cc2)oc2cc(-c3ccn[nH]3)c(OC(C)C)cc12 | <10 µM |
| O=C(O)c1ccc2c(C3CCCCC3)c3n(c2c1)CCCCN(CCO)c1ccccc1-3 | 1–10 µM |
| CCCCCc1ccc(S(=O)(=O)Oc2ccccc2/C=N/NC(=O)Cc2cccc(OC)c2)cc1 | <5 µM |
| CCc1cccc(N=C2SC(c3ccc(NC(=O)[C@@H](C)NC(=O)OCc4ccccc4)cc3)C(=O)N2Cc2ccco2)c1 | 1–5 µM |
| CNC(=O)c1c(-c2ccc(F)cc2)oc2cc(-c3cccc(S(C)(=O)=O)c3)c(OC(C)C)cc12 | <10 µM |
| O=C(CCc1cccnc1)N/N=C/c1ccccc1OS(=O)(=O)c1ccc(C(F)(F)F)cc1 | <5 µM |

A second listing of 3 rows from above:

{"SMILES": "O=C1Cn2c(c(C3CCCCC3)c3ccc(C(=O)NC4(C(=O)Nc5nccs5)CCCC4)cc32)-c2ccccc2N1", "value": "0.01–1 µM"}
{"SMILES": "CNC(=O)c1c(-c2ccc(F)cc2)oc2cc(N(C)S(C)(=O)=O)c(OCc3nccs3)cc12", "value": "<1 µM"}
{"SMILES": "COC(=O)c1ccc2c(C3CCCCC3)c3n(c2c1)C(O)c1cc(Cl)ccc1-3", "value": "0.01–1 µM"}

ECn: concentration that inhibits the pathogen or its effect by n%. Two numbers with a dash give a range or band.